Experimental data from publication PMC9249791, “Molecular dissection of the glutamine synthetase-GlnR nitrogen regulatory circuitry in Gram-positive bacteria” (Nature Communications, 2022).
The exact form of at least one protein or probe is not confirmed.

What was measured:
[1] = molecular target: Sa GlnR(1-87)K48R (UniProt Q53687); experiment: fluorescence polarization; conditions: 5 mM Mg2+; FP: 25 mM Tris pH 7.5, 100 mM NaCl, 5 mM MgCl2, 1 nM fluoresceinated DNA; temperature not stated; recombinant protein; residues 1-87
[2] = molecular target: Sa GlnR(1-87)K48H (UniProt Q53687); experiment: fluorescence polarization; conditions: 5 mM Mg2+; FP: 25 mM Tris pH 7.5, 100 mM NaCl, 5 mM MgCl2, 1 nM fluoresceinated DNA; temperature not stated; recombinant protein; residues 1-87

Sequence: CGTGTCAGATAATCTGACACG (double strand) [21-mer glnR operator, fluoresceinated]
- Kd [1]: 8 nM
- Kd [2]: 11.6 nM
